A mixed list of measured activities; the numbers were collected in NIAID ChemDB.

Common to all: whole-cell or culture tests

Two numbers with a dash give a range or band. Lines come from different laboratories, so protocols vary. An empty or dashed field is not shown. ECn is the concentration giving n% inhibition of infection, replication or growth. Zones are inhibition diameters on agar. "inactive" is the filed call at that dose; no cut-off is given. A number after MIC or MFC names an inhibition level or a share of isolates. Inhibition is in % at the dose shown (toxicity tests: loss of growth or viability).

smiles,agent,strain or isolate,method,read-out,tested at,result
CC1CN(c2nc3c(cc2F)c(=O)c(C(=O)O)cn3C2CC2)CCN1,Mycobacterium fortuitum,ATCC 6841,-,MIC,-,0.13 µg/mL
CCCCN1CCN(c2cc3c(cc2F)c(=O)c(C(=O)O)cn3C2CC2)CC1,Mycobacterium avium complex,14 strains,-,MIC90,-,8 µg/mL
O=C(O)c1cn(C2CC2)c2cc(N3CCNCC3)c(F)cc2c1=O,Mycobacterium luteus,-,agar diffusion,MIC,-,>100 µg/mL
C=C1[C@@H](O)[C@@H]2OC3(CCC(/C=C/[C@@H](C)[C@@H]4CC(C)=CC5(O[C@H](C[C@@](C)(O)C(=O)O)CC[C@H]5O)O4)O3)CC[C@H]2O[C@@H]1[C@@H](O)C[C@H](C)[C@H]1OC2(CCCCO2)CC[C@H]1C,Mycobacterium bovis,BCG,-,EC50,-,>6 µM
O=c1c(O)c(-c2ccc(O)c(O)c2)oc2cc(O)ccc12,Mycobacterium phlei,-,-,MIC,-,>100 µg/mL
CCN1C(=O)C2(C3=C(CN2C)C(=O)c2ccccc2C3=O)c2ccccc21,Mycobacterium luteus,-,agar diffusion,zone,50 µg/mL,18 mm
O=C(O)c1cn(C2CC2)c2c(C(F)(F)F)c(N3CCNCC3)c(F)cc2c1=O,Mycobacterium fortuitum,ATCC 6841,-,MIC,-,0.25 µg/mL
C/C=C(C)/C=C(\C)[C@@H](O)[C@H](C)[C@@H](O)[C@H](O)[C@@H]1C/C=C\C=C\[C@@H](O)C[C@H](O)[C@@H](C)c2nc(cs2)/C=C(\CCCCCC)C(=O)O1,Mycobacterium luteus,-,visual reading,MIC,-,8 µg/mL
COc1c(-c2ccccc2)oc2cc3c(c(O)c2c1=O)OCO3,Mycobacterium phlei,-,-,MIC,-,75 µg/mL
COc1cc(Cc2cnc(N)nc2N)cc(OC)c1Br,Mycobacterium ulcerans,Isolate 94-886,-,MIC,-,16 µg/mL
CO[C@H]1/C=C/O[C@@]2(C)Oc3c(C)c(O)c4c(O)c(c(/C=N/N5CCN(C)CC5)c(O)c4c3C2=O)NC(=O)/C(C)=C\C=C\[C@H](C)[C@H](O)[C@@H](C)[C@@H](O)[C@@H](C)[C@H](OC(C)=O)[C@@H]1C,Mycobacterium avium,Isolate 90-1816,-,MIC,-,2.5 µg/mL
CC[C@H]1OC(=O)[C@H](C)[C@@H](O[C@H]2C[C@@](C)(OC)[C@@H](O)[C@H](C)O2)[C@H](C)[C@@H](O[C@@H]2O[C@H](C)C[C@H](N(C)C)[C@H]2O)[C@](C)(OC)C[C@@H](C)C(=O)[C@H](C)[C@@H](O)[C@]1(C)O,Mycobacterium massiliense,V44,broth dilution,MIC,-,0.25 µg/mL
Cc1ccc2c(c1)C1(C(=O)N2)C2=C(CN1C)C(=O)c1ccccc1C2=O,Mycobacterium luteus,-,agar diffusion,zone,50 µg/mL,13 mm
CCN1CCN(c2c(F)cc3c(=O)c(C(=O)O)cn(C4CC4)c3c2Cl)CC1,Mycobacterium fortuitum,ATCC 6841,-,MIC,-,0.13 µg/mL
O=C(O)c1cn(C2CC2)c2c(Cl)c(N3CCNCC3)c(F)cc2c1=O,Mycobacterium avium complex,14 strains,-,MIC90,-,4 µg/mL
CCN1CCN(c2nc3c(cc2F)c(=O)c(C(=O)O)cn3-c2ccc(F)cc2F)CC1,Mycobacterium fortuitum,ATCC 6841,-,MIC,-,0.25 µg/mL
O=C(O)c1cc(C(F)(F)F)cc2c(=O)nc(N3CCN(CC4CCCCC4)CC3)sc12,Mycobacterium vaccae,ATCC 15483,resazurin,MIC99,-,>100 µg/mL
O=C(NO)c1ccc([N+](=O)[O-])cc1,Mycobacterium luteus,ATCC 10240,agar diffusion / agar,zone,2000 µM,0 mm
CN(C)c1cc(NC(=O)CNC(C)(C)C)c(O)c2c1C[C@H]1C[C@H]3[C@H](N(C)C)C(=O)C(C(N)=O)=C(O)[C@@]3(O)C(=O)C1=C2O,Mycobacterium massiliense,V60,broth dilution,MIC,-,1 µg/mL
CC1CN(c2c(F)cc3c(=O)c(C(=O)O)cn(C4CC4)c3c2F)CCN1,Mycobacterium fortuitum,ATCC 6841,-,MIC,-,0.06 µg/mL
COc1cc(Cc2cnc(N)nc2N)cc(OC)c1OCCCNc1ccc(S(=O)(=O)c2ccc(N)cc2)cc1,Mycobacterium ulcerans,Isolate 5143,-,MBC,-,2 µg/mL
C[C@H]1COC2(CCN(c3nc(=O)c4cc(C(F)(F)F)cc(C(=O)O)c4s3)CC2)O1,Mycobacterium abscessus,2005-0524,resazurin,MIC99,-,>100 µg/mL
C=C[C@]1(C)C=C2[C@H](O)C[C@@H]3C(C)(CCC[C@@]3(C)CO)[C@H]2CC1,Mycobacterium avium,ITM1794,-,inhibition,100 µg/mL,inactive
CC[C@H]1OC(=O)[C@H](C)[C@@H](O[C@H]2C[C@@](C)(OC)[C@@H](O)[C@H](C)O2)[C@H](C)[C@@H](O[C@@H]2O[C@H](C)C[C@H](N(C)C)[C@H]2O)[C@](C)(OC)C[C@@H](C)C(=O)[C@H](C)[C@@H](O)[C@]1(C)O,Mycobacterium marinum,37 clinical isolates,-,MIC90,-,1.5 µg/mL
O=C(NOCc1ccccc1)c1cc([N+](=O)[O-])cc(C(F)(F)F)c1,Mycobacterium luteus,ATCC 10240,agar diffusion / agar,zone,2000 µM,14–20 mm
CCN1CCN(c2c(F)cc3c(=O)c(C(=O)O)cn(C4CC4)c3c2OC)CC1,Mycobacterium avium complex,14 strains,-,MIC90,-,2 µg/mL
CO[C@H]1/C=C/O[C@@]2(C)Oc3c(C)c(O)c4c(O)c(c(/C=N/N5CCN(C)CC5)c(O)c4c3C2=O)NC(=O)/C(C)=C\C=C\[C@H](C)[C@H](O)[C@@H](C)[C@@H](O)[C@@H](C)[C@H](OC(C)=O)[C@@H]1C,Mycobacterium spp.,JLS,-,MIC,-,0.5–5 µg/mL
O=C(O)c1cn(C2CC2)c2cc(N3CCNCC3)c(F)cc2c1=O,Mycobacterium luteus,ATCC 10240,agar diffusion / agar,zone,2000 µM,0 mm
C[C@@H]1O[C@@H](OC[C@H]2O[C@@H](Oc3c(-c4ccc(O)c(O)c4)oc4cc(O)cc(O)c4c3=O)[C@H](O)[C@@H](O)[C@@H]2O)[C@H](O)[C@H](O)[C@H]1O,Mycobacterium phlei,-,-,MIC,-,>100 µg/mL
CO[C@H]1/C=C/O[C@@]2(C)Oc3c(C)c(O)c4c(O)c(c5c(c4c3C2=O)NC2(CCN(CC(C)C)CC2)N=5)=NC(=O)/C(C)=C\C=C\[C@H](C)[C@H](O)[C@@H](C)[C@@H](O)[C@@H](C)[C@H](OC(C)=O)[C@@H]1C,Mycobacterium avium intracellulare,20 isolates,-,MIC50,-,0.25 µg/mL
C/C=C(C)/C=C(\C)[C@@H](O)[C@H](O)[C@H]1OC(=O)/C=C/c2csc(n2)[C@H](C)[C@@H](O)C[C@H](O)/C=C/C=C\C[C@H](O)[C@H]1O,Mycobacterium luteus,-,visual reading,MIC,-,32 µg/mL
CN1CCN(c2c(F)cc3c(=O)c(C(=O)O)cn(C4CC4)c3c2Br)CC1,Mycobacterium fortuitum,ATCC 6841,-,MIC,-,0.06 µg/mL
O=C(N[C@H]([C@H](O)CNCc1cccc(I)c1)C(F)(F)c1ccccc1)OCc1ccccc1,Mycobacterium marinum,LCA-13,agar diffusion,zone,50 µg/disc,8 mm
CNCC1CCN(c2c(F)cc3c(=O)c(C(=O)O)cn(-c4ccc(F)cc4F)c3c2OC)C1,Mycobacterium fortuitum,ATCC 6841,-,MIC,-,1 µg/mL
O=C(NOCc1ccccc1)c1ccc(Cl)cc1,Mycobacterium luteus,ATCC 10240,agar diffusion / agar,zone,2000 µM,19 mm
CO[C@H]1/C=C/O[C@@]2(C)Oc3c(C)c(O)c4c(O)c(c(/C=N/N5CCN(C)CC5)c(O)c4c3C2=O)NC(=O)/C(C)=C\C=C\[C@H](C)[C@H](O)[C@@H](C)[C@@H](O)[C@@H](C)[C@H](OC(C)=O)[C@@H]1C,Mycobacterium luteus,-,visual reading,MIC,-,0.01 µg/mL
O=c1c(O)c(-c2ccc(O)c(O)c2)oc2cc(O)cc(O)c12,Mycobacterium phlei,-,-,MIC,-,>100 µg/mL
CN(C)c1ccc(O)c2c1C[C@H]1C[C@H]3[C@H](N(C)C)C(=O)C(C(N)=O)=C(O)[C@@]3(O)C(=O)C1=C2O,Mycobacterium marinum,37 clinical isolates,-,MIC90,-,2 µg/mL
CN1CC2CC1CN2c1c(F)cc2c(=O)c(C(=O)O)cn(C3CC3)c2c1F,Mycobacterium avium complex,14 strains,-,MIC50,-,2 µg/mL
CC1CN(c2nc3c(cc2F)c(=O)c(C(=O)O)cn3C2CC2)CC(C)N1,Mycobacterium fortuitum,ATCC 6841,-,MIC,-,0.13 µg/mL
O=C(O)c1cn(-c2ccc(F)cc2F)c2cc(N3CCNCC3)c(F)cc2c1=O,Mycobacterium avium complex,14 strains,-,MIC50,-,4 µg/mL
CN1CC2=C(C(=O)c3ccccc3C2=O)C12C(=O)Nc1ccc(Br)cc12,Mycobacterium luteus,-,agar diffusion,zone,50 µg/mL,17 mm

A second listing of 4 rows from above:

{"smiles": "O=C(NO)c1ccc([N+](=O)[O-])cc1", "agent": "Mycobacterium luteus", "strain or isolate": "ATCC 10240", "method": "agar diffusion / agar", "read-out": "zone", "tested at": "2000 µM", "result": "0 mm"}
{"smiles": "O=C(O)c1cn(C2CC2)c2c(Cl)c(N3CCNCC3)c(F)cc2c1=O", "agent": "Mycobacterium avium complex", "strain or isolate": "14 strains", "read-out": "MIC90", "result": "4 µg/mL"}
{"smiles": "C=C[C@]1(C)C=C2[C@H](O)C[C@@H]3C(C)(CCC[C@@]3(C)CO)[C@H]2CC1", "agent": "Mycobacterium avium", "strain or isolate": "ITM1794", "read-out": "inhibition", "tested at": "100 µg/mL", "result": "inactive"}
{"smiles": "CCN1C(=O)C2(C3=C(CN2C)C(=O)c2ccccc2C3=O)c2ccccc21", "agent": "Mycobacterium luteus", "method": "agar diffusion", "read-out": "zone", "tested at": "50 µg/mL", "result": "18 mm"}